Compound potency records, mixed from different reports. Data source: NIAID ChemDB in PubChem.

Common to all: growth or infection tests; agent: HIV-1; method: cytopathic effect / XTT; measure: EC50

Lines come from different laboratories, so protocols vary.

N#CC1=C(N)N2C(=C(C#N)C1c1ccc(Cl)cc1)Oc1ccccc12 ; cell line: CEM ; result: 36.7 µM
CCOc1c(Cl)cc(F)c(CCNC(=S)Nc2ccc(Br)cn2)c1Cl ; strain: IIIB ; changes: RT-L100I ; cell line: MT-4 ; result: 1 µM
CC(C)=CCOc1cc(NC(=S)c2ccsc2C)ccc1Cl ; strain: NL4-3 (RT K103N) ; changes: RT-K103N ; cell line: CEM + CEM-SS ; result: 0.07 µM
O=C(O)CCCCC(=O)OC[C@H]1O[C@@H](n2cc(-c3cccs3)c(=O)[nH]c2=O)C[C@@H]1O ; cell line: MT-4 ; result: >100 µg/mL
O=S1(=O)C[C@@H](O)[C@@H](O)CS1 ; strain: RF ; cell line: CEM + CEM-SS ; result: 16.2 µM
CC(C)CCC[C@@H](C)[C@H]1CC[C@H]2[C@@H]3CC[C@H]4C[C@@H](CCC=C(c5cc(Cl)c(O)c(C(=O)O)c5)c5cc(Cl)c(O)c(C(=O)O)c5)CC[C@]4(C)[C@H]3CC[C@]12C ; strain: IIIB ; cell line: CEM ; result: 3 µg/mL
N#CC1=C(N)N2C(=C(C#N)C1c1ccccc1)Oc1ccccc12 ; cell line: CEM ; result: >200 µM
C[C@@H]1O[C@H]2O[C@H]3[C@@H](OC[C@@H](O)[C@@H]3O)OC(=O)[C@]34CCC(C)(C)C[C@@]3(C)C3=CC[C@@]5(C)[C@@](C)(CC[C@@H]6[C@](C)(CO)[C@@H](O[C@@H]7O[C@H](CO)[C@@H](O)[C@H](O)[C@H]7O[C@@H]7O[C@@H](C(=O)C[C@](C)(O)CC(=O)O[C@@H]1[C@@H](O[C@@H]1OC[C@@H](O)[C@H](O)[C@H]1O)[C@H]2O)[C@H](O)[C@H](O)[C@H]7O)[C@@H](O)C[C@@]65C)[C@]3(C)CC4 ; strain: RF ; cell line: H9 ; result: 19.7 µg/mL
CN(N=O)C(=O)NCCCCC(NC(=O)OCc1ccccc1)C(=O)OCc1ccccc1 ; strain: IIIB ; cell line: CEM-IW + CEM ; result: >39.8 µM
O=S(=O)(Nc1nnc2c3ccccc3cnn12)c1ccc(Cl)cc1S ; strain: RF ; cell line: CEM ; result: 49 µM
CNc1ccccc1S(=O)(=O)c1ccccc1[N+](=O)[O-] ; cell line: CEM ; result: 0.082 µM
Nc1ncnc2c1ncn2[C@H]1C[C@H](OCP(=O)(O)O)CO1 ; strain: IIIB ; cell line: MT-2 ; result: >200 µM
Cc1cn([C@H]2C[C@H](O)[C@@H](COC(=O)C3CCC(C(=O)O)CC3)O2)c(=O)[nH]c1=O ; cell line: MT-4 ; result: >100 µg/mL
NC(=O)CCNC(=O)c1ccccc1S ; strain: RF ; cell line: CEM ; result: 2.3 µM
Nc1ncnc2c1ncn2[C@@H]1C[C@H](OCP(=O)(O)O)CO1 ; strain: IIIB ; cell line: MT-2 ; result: >200 µM
Nc1nc(Cl)c2ncn([C@H]3C=C[C@@H](CO)C3)c2n1 ; strain: IIIB ; cell line: MT-2 ; result: 0.41 µg/mL
CCCCCCCCCCCCCCCCCCOP(=O)(O)OCCC=C(c1cc(Cl)c(O)c(C(=O)O)c1)c1cc(Cl)c(O)c(C(=O)O)c1 ; strain: RF ; cell line: CEM + CEM-SS ; result: >74 µM
O=C(Nc1ccccc1S)c1ccccc1 ; strain: RF ; cell line: CEM + CEM-SS ; result: 3 µM
CC1=C2N3C[C@H](n4c(=O)n(C)c(=O)n43)C23CCC1n1c(=O)n(C)c(=O)n13 ; strain: RF ; cell line: CEM + CEM-SS ; result: >200 µg/mL
Cc1cc(S(=O)(=O)n2cccc2)c(SCC#N)cc1Cl ; cell line: CEM ; result: >200 µM
[O-][n+]1onc2ncnc(N3CC[N+]4(CC3)CC[N+]3(CCN(c5ncnc6no[n+]([O-])c56)CC3)CC4)c21 ; strain: RF ; cell line: CEM + CEM-SS ; result: 150 µM
FC(F)(Sc1ccccc1)c1nc2ccccc2o1 ; strain: RF ; cell line: CEM + CEM-SS ; result: 36 µM
OC[C@@H]1C=C[C@H](n2cnc3c(Cl)ncnc32)C1 ; strain: IIIB ; cell line: MT-2 ; result: >10 µg/mL
COc1ccc(C(=O)CSc2cc(Cl)c(C)cc2S(=O)(=O)n2cccc2)cc1 ; cell line: CEM ; result: >200 µM
Cc1cn([C@H]2C[C@H](O)[C@@H](COC(=O)CCCCCC(=O)O)O2)c(=O)[nH]c1=O ; cell line: MT-4 ; result: >100 µg/mL
Cc1cc(S(=O)(=O)Nc2nc(N)n(-c3ccccc3)n2)c(S)cc1Cl ; strain: RF ; cell line: CEM + CEM-SS ; result: 64 µM
Nc1ncnc2c1ncn2[C@H]1C=C[C@@H](CO)C1 ; strain: IIIB ; cell line: MT-2 ; result: 2.3 µg/mL
Cc1ccnc(SC(F)(F)c2nc3ccccc3o2)n1 ; strain: RF ; cell line: CEM + CEM-SS ; result: 0.0646 µM
COc1ccc(-c2cc(=O)c3c(C)cc(O)cc3o2)cc1 ; strain: RF ; cell line: CEM + CEM-SS ; result: 67 µM
CCCCCC=C(c1cc(Cl)c(O)c(C(=O)O)c1)c1cc(Cl)c(O)c(C(=O)O)c1 ; strain: RF ; cell line: CEM + CEM-SS ; result: >95 µM
O=C(/C=C/c1ccccc1O)c1ccc(O)cc1O ; strain: RF ; cell line: CEM + CEM-SS ; result: 32 µM
O=C(O)CCCC(=O)OC[C@H]1O[C@@H](n2cc(-c3cccs3)c(=O)[nH]c2=O)C[C@@H]1O ; cell line: MT-4 ; result: >100 µg/mL
O=C(CCN1C(=O)/C(=C/c2cccs2)SC1=S)Nc1ccc(O)c(C(=O)O)c1 ; cell line: CEM + CEM-SS ; result: 21 µM
CN1[C@H](c2cccc(Cl)c2)c2ccccc2S1(=O)=O ; strain: RF ; cell line: CEM + CEM-SS ; result: 5.28 µM
C#CCNC(=O)NC(CCCCNC(=O)OCc1ccccc1)C(=O)OCc1ccccc1 ; strain: IIIB ; cell line: CEM-IW + CEM ; result: >82.3 µM
Nc1nc2c(ncn2C[C@@H](CO)OCP(=O)(O)O)c(=O)[nH]1 ; strain: LAV-Bru ; cell line: CEM + CEM-SS ; result: >500 µM
COc1cccc(/C=C/C(=O)c2ccccc2)c1O ; strain: RF ; cell line: CEM + CEM-SS ; result: 23 µM
O=C(CCN1C(=O)/C(=C/c2ccc3c(c2)OCO3)SC1=S)Nc1ccc(C(=O)O)c(O)c1 ; cell line: CEM + CEM-SS ; result: >200 µM
OC[C@@H]1C=C[C@H](n2cnc3c(=S)nc[nH]c32)C1 ; strain: IIIB ; cell line: MT-2 ; result: >10 µg/mL
O=S(=O)(Nc1nnc2c3ccccc3cnn12)c1ccc(F)cc1S ; strain: RF ; cell line: CEM ; result: 48 µM
C=C1C[C@@]23CC[C@@H]4C(C)(C)[C@H](O)C(=O)C[C@@]4(C)[C@@H]2C[C@@H]1CC3=O ; strain: RF ; cell line: CEM + CEM-SS ; result: 6 µg/mL
CCOC(=O)c1c(N)ssc1=S ; strain: RF ; cell line: CEM + CEM-SS ; result: 72 µM
O=C1CS/C(=C/c2nc3ccccc3o2)N1 ; cell line: CEM ; result: 4.02 µM
CC(C)=CCN1Cc2cc(Cl)cc3[nH]c(=O)n(c23)C[C@@H]1C ; strain: IIIB ; cell line: MT-4 ; result: 0.25 µM
Nc1nc(Cl)c2ncn([C@H]3C=C[C@@H](CO)C3)c2n1 ; strain: IIIB ; cell line: MT-2 ; result: 0.41 µg/mL
O=C(O)/C=C/c1ccc(N=Nc2c(S(=O)(=O)O)cc3cc(NC(=O)Nc4ccc5c(O)c(N=Nc6ccc(/C=C/C(=O)O)cc6)c(S(=O)(=O)O)cc5c4)ccc3c2O)cc1 ; strain: RF ; cell line: CEM + CEM-SS ; result: 2.5 µM
C#CCN(N=O)C(=O)NC(CCCNC(=O)OCc1ccccc1)C(=O)OCc1ccccc1 ; strain: IIIB ; cell line: CEM-IW + CEM ; result: >28.2 µM
CC(C)=CCOc1cc(NC(=S)c2ccoc2C)ccc1Cl ; strain: NL4-3 (RT M184V) ; changes: RT-M184V ; cell line: CEM + CEM-SS ; result: 0.02 µM
C#CCN(N=O)C(=O)NCCCCC(NC(=O)OCc1ccccc1)C(=O)OCc1ccccc1 ; strain: IIIB ; cell line: CEM-IW + CEM ; result: >10.8 µM
Cc1cc(S(=O)(=O)n2cccc2)c(Sc2cc(Cl)c(C)cc2S(=O)(=O)n2cccc2)cc1Cl ; cell line: CEM ; result: >200 µM
CNC(=O)NC(CCCCNC(=O)OCc1ccccc1)C(=O)OCc1ccccc1 ; strain: IIIB ; cell line: CEM-IW + CEM ; result: >44.1 µM
COc1cc(-c2ccc(N=Nc3ccc4c(S(=O)(=O)O)cc(S(=O)(=O)O)c(N)c4c3O)c(OC)c2)ccc1N=Nc1ccc2c(S(=O)(=O)O)cc(S(=O)(=O)O)c(N)c2c1O ; strain: 205 ; cell line: CEM + CEM-SS ; result: 0.6 µM

For reference, 7 entries again:

smiles,strain,changes,cell line,result
C[C@@H]1O[C@H]2O[C@H]3[C@@H](OC[C@@H](O)[C@@H]3O)OC(=O)[C@]34CCC(C)(C)C[C@@]3(C)C3=CC[C@@]5(C)[C@@](C)(CC[C@@H]6[C@](C)(CO)[C@@H](O[C@@H]7O[C@H](CO)[C@@H](O)[C@H](O)[C@H]7O[C@@H]7O[C@@H](C(=O)C[C@](C)(O)CC(=O)O[C@@H]1[C@@H](O[C@@H]1OC[C@@H](O)[C@H](O)[C@H]1O)[C@H]2O)[C@H](O)[C@H](O)[C@H]7O)[C@@H](O)C[C@@]65C)[C@]3(C)CC4,RF,-,H9,19.7 µg/mL
Cc1cc(S(=O)(=O)n2cccc2)c(Sc2cc(Cl)c(C)cc2S(=O)(=O)n2cccc2)cc1Cl,-,-,CEM,>200 µM
Nc1nc2c(ncn2C[C@@H](CO)OCP(=O)(O)O)c(=O)[nH]1,LAV-Bru,-,CEM + CEM-SS,>500 µM
COc1ccc(C(=O)CSc2cc(Cl)c(C)cc2S(=O)(=O)n2cccc2)cc1,-,-,CEM,>200 µM
CNc1ccccc1S(=O)(=O)c1ccccc1[N+](=O)[O-],-,-,CEM,0.082 µM
CC(C)=CCOc1cc(NC(=S)c2ccoc2C)ccc1Cl,NL4-3 (RT M184V),RT-M184V,CEM + CEM-SS,0.02 µM
CC(C)=CCOc1cc(NC(=S)c2ccsc2C)ccc1Cl,NL4-3 (RT K103N),RT-K103N,CEM + CEM-SS,0.07 µM

ECn: concentration that inhibits the pathogen or its effect by n%. Blank or dashed fields: not listed here.